Molecular target: H10MbtA^opt (MbtAtb) (Mycobacterium tuberculosis (strain ATCC 25618 / H37Rv), UniProt P71716)
Test: biochemical

Chains of the proteins cited; added tags and fusions are not shown.
UniProt P71716, whole entry, added parts left off: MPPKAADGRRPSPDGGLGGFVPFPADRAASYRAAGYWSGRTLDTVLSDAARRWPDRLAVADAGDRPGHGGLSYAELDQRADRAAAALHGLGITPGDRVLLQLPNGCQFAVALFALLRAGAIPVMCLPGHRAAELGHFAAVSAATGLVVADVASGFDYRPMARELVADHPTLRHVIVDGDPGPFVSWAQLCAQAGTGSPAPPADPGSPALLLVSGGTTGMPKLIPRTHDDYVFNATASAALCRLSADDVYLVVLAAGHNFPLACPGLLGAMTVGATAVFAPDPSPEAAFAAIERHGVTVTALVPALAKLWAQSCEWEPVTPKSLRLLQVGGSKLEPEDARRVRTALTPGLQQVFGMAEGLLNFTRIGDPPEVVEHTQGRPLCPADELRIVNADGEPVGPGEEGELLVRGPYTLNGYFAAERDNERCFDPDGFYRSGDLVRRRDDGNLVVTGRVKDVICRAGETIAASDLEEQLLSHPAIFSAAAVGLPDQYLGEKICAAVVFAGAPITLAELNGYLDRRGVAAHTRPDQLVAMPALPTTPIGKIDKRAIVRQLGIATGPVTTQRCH

Nc1ncnc2c1ncn2[C@@H]1O[C@H](COS(N)(=O)=O)[C@@H](O)[C@H]1O [compound 7, AMS]
IC50: > 1000 µM

From US12435088B2, “Salicyl-adenosinemonosulfamate analogs and uses thereof” (priority 2018, dated 2025)
